## Primary screen of a compound library

Results are given as percent effect.
The controls that fix the scale are not given in the record; negative values are as filed.
Many other results are left out here, so strong results are more common than in the screen.

Mtb glucose medium: 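Phenotypic screen: M. tuberculosis growth, glucose 7H9 medium, 3 days; the read-out is not stated. Tested at 500 µM. Direction is inferred from retests: higher values go with more growth inhibition. Of about 18,000 compounds tested this way, about 1,400 (7.9%) reached 50% or more in at least one test.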
Mtb cholesterol medium: 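Whole-cell growth test on Mycobacterium tuberculosis, read after 4 days in a medium based on cholesterol and the lipid DPPC; the read-out is not stated. Tested at 500 µM. Direction is inferred from retests: higher values go with more growth inhibition. Size under these conditions: about 18,000 compounds, about 900 of them at 50% or above in at least one test.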

With NC(CCO)C1CCCCC1 (stereo not shown) the screen gave Mtb glucose medium: -6.444%. With NCC(=O)N1CCN(Cc2ccccc2)CC1 the screen gave Mtb glucose medium: 8.09%. For COC(C(=O)NCc1ccncn1)c1ccccc1 (stereo not shown) the result was Mtb glucose medium: 0.05608%. CC(C)OCCCNC(=O)C1CCNC1 (stereo not shown) read Mtb glucose medium: -2.413%.

CC(=O)N1CCN(c2ccc3nnnn3n2)CC1 gave Mtb glucose medium: -2.24%. Result for COc1ccc(S(=O)(=O)Nc2cccc(CN)c2)cc1 was Mtb glucose medium: 75.24%; Mtb cholesterol medium: 53.17%. Result for CSC(C)C(=O)NCCNC(=O)C(C)C (stereo not shown) was Mtb glucose medium: 4.872%. With COc1ccc(N2CCCN(CCC(N)=O)CC2)cc1 the screen gave Mtb glucose medium: 61.43%.

CC(N)CC(=O)Nc1cccc(N2CCCC2)c1 (stereo not shown) read Mtb glucose medium: 44.86%. CN(C)c1ncc(CNC(=O)C2CCC2)n1C read Mtb glucose medium: 1.812%. With CNCC(=O)N1CCCC(OCc2ccccn2)C1 (stereo not shown) the screen gave Mtb glucose medium: -3.249%. CC1CCN(Cc2cc(=O)n3ccsc3n2)CC1 read Mtb cholesterol medium: -0.95%.

C[C@@H]1CNC[C@H]1C(=O)N1CCOCC1 read Mtb cholesterol medium: 5.692%. COc1cccc(CNCc2ccc(C(N)=O)cc2)c1 read Mtb cholesterol medium: 3.314%. N[C@H]1CCN(c2ccccc2)C1 read Mtb glucose medium: 4.216%; Mtb cholesterol medium: 3.052%. CCOC(=O)CN(C)S(=O)(=O)NCc1cnn(C)c1 gave Mtb cholesterol medium: 16.67%.

With CCC[C@H]1CN(C(=O)CCn2cnnn2)C[C@@H]1N the screen gave Mtb glucose medium: 16.02%; Mtb cholesterol medium: 11.16%. With Cc1nn(C)c(C)c1C(C)NC(=O)c1cccnc1 (stereo not shown) the screen gave Mtb glucose medium: -3.12%. CN(C)C(CNc1ncccc1F)C1CC1 (stereo not shown) read Mtb glucose medium: -3.032%; Mtb cholesterol medium: -2.447%. COc1ccc(-c2nnn(CCO)n2)cc1OC gave Mtb glucose medium: 22.89%; Mtb cholesterol medium: 7.347%.

For Cc1cc(C#N)ccc1CO the result was Mtb glucose medium: 24%. CN1CCC(NC(=O)c2coc(Br)c2)CC1=O (stereo not shown) read Mtb glucose medium: 59.11%. With O=S1(=O)CCNCc2ccccc21 the screen gave Mtb glucose medium: -12.63%. NC(=O)Nc1cccc(C(=O)NCC2CCCCO2)c1 (stereo not shown) read Mtb cholesterol medium: 9.301%.

For CC(C)OCCN(CC(N)=O)C(C)C the result was Mtb glucose medium: 9.129%; Mtb cholesterol medium: 18.63%. O=C(CCN1CCCC1)N1CCc2ccccc21 read Mtb glucose medium: 73.22%. Result for Cc1nc(C(C)C)sc1C(=O)N[C@H]1CC[C@H]1N was Mtb glucose medium: 10.62%. With CC(C)(CC(N)=O)NCc1ccc(F)c(C#N)c1 the screen gave Mtb glucose medium: 7.046%.

With NS(=O)(=O)NCC1CCCN(CCc2cccs2)C1 (stereo not shown) the screen gave Mtb cholesterol medium: 17.78%. COCC(=O)Nc1ccc(C(=O)c2nccn2C)cc1 gave Mtb glucose medium: 49.47%. CC(C)(C)c1n[nH]cc1CNCC(=O)N1CCCC1 gave Mtb glucose medium: 7.452%; Mtb cholesterol medium: 10.94%. For CC(NC(=O)c1cccn1C(C)C)c1ncon1 (stereo not shown) the result was Mtb glucose medium: 8.42%.

The last 3 entries again:

For COCC(=O)Nc1ccc(C(=O)c2nccn2C)cc1 the result was Mtb glucose medium: 49.47%.
For CC(C)(C)c1n[nH]cc1CNCC(=O)N1CCCC1 the result was Mtb glucose medium: 7.452%; Mtb cholesterol medium: 10.94%.
For CC(NC(=O)c1cccn1C(C)C)c1ncon1 (stereo not shown) the result was Mtb glucose medium: 8.42%.

Measurements from “University of Dundee, Small-Polar-MMV Screening Library” (2021), ChEMBL document CHEMBL3988442.